Compound potency records, mixed from different reports. Data source: NIAID ChemDB in PubChem.

All rows: whole-cell or culture tests; agent: Plasmodium falciparum

An empty or dashed field is not shown. ECn: concentration that inhibits the pathogen or its effect by n%. Lines come from different laboratories, so protocols vary.

structure | method | endpoint | strain | changes | value
COCc1c(O)cc2c(c1O)C(=O)c1ccccc1C2=O | - | EC50 | 3D7 | - | 2.1 µM
N=C(N)c1ccc(OCCCCOc2ccc(C(=N)N)cc2Cl)c(Cl)c1 | hypoxanthine uptake | EC50 | D6 | - | 0.144 µM
O=C1[C@@H](NCCNc2ccnc3cc(Cl)ccc23)[C@@H](/C=C/c2ccccc2)N1c1ccccc1 | flow cytometry | EC50 | W2 | Chloroquine-resistant | 0.1353 µM
CC(=O)O[C@@H]1CC[C@]2(C)C3C[C@H](OC(C)=O)[C@@]4(C)C(CC[C@@H]4C(C)CCCN(C)CCNc4ccnc5cc(Cl)ccc45)C3[C@H](OC(C)=O)C[C@@H]2C1 | SYBR Green | EC90 | D6 | - | 0.1906 µM
N=C(N)c1cccc(OCCCOc2cccc(C(=N)N)c2)c1 | hypoxanthine uptake | EC50 | D6 | - | 0.14 µM
COC(=O)C1=C(C)N(Cc2ccc(C(F)(F)F)cc2)C(=NCc2cccc(C(F)(F)F)c2)NC1c1cccc(Cl)c1 | SYBR Green / fluorescence | EC50 | 7G8 | - | 5.5 µM
N=C(N)c1ccc(NCCCCCCNc2ccc(C(=N)N)cc2N)c(N)c1 | hypoxanthine uptake | EC50 | W2 | - | 0.133 µM
C=CCOc1ccc(/C=C/C(=O)c2ccco2)cc1OC | SYBR Green | EC50 | 3D7 | - | 95 µM
Cc1[nH]nc2c1C(c1cc(C#N)cc(-c3ccc(C(=O)NCCCN4CCN(C)CC4)s3)c1)(C(C)C)C(C#N)=C(N)O2 | radiometric | EC50 | K1 | - | 1.19 µM
COC(=O)C1=C(C(=O)OC)C2N(Cc3ccccc3)c3ccccc3[C@@]23C[C@@H](C(=O)OC)N(S(=O)(=O)c2ccc(Br)cc2)C3=N1 | SYBR Green / fluorescence | EC50 | HB3 Dd2 | - | 1.6 µM
O=C(CCCNc1ccnc2cc(Cl)ccc12)N[C@H]1C(=O)N(C2CCCCC2)[C@H]1/C=C/c1ccccc1 | flow cytometry | EC50 | W2 | Chloroquine-resistant | 0.5567 µM
C[C@@]1(C(=O)O)CC[C@]2(C)CC[C@]3(C)C4=CC5C(=CN/C=C6\C(=O)CC[C@]7(C)CC8CC[C@@]9(C)C%10C[C@](C)(C(=O)O)CC[C@]%10(C)CC[C@]9(C)C8=CC67)C(=O)CC[C@]5(C)CC4CC[C@@]3(C)C2C1 | SYBR Green | EC50 | FCM29 | CQ-resistant | 16.6 µM
O=c1[nH]c(-c2c[nH]c3ccc(I)cc23)nc2ccccc12 | LDH | EC50 | D6 | - | >14.43 µM
O=C(CCCNc1ccnc2cc(Cl)ccc12)N[C@H]1C(=O)N(C2CCCCCC2)[C@H]1/C=C/c1ccccc1 | flow cytometry | EC50 | W2 | Chloroquine-resistant | 0.2758 µM
CCCCCC[C@]12Cc3cc(OC)c(OC)cc3[C@@H](O1)c1c(c3ccccc3n(C)c1=O)O2 | SYBR Green / fluorescence | EC50 | CP250 | - | 6 µM
Cc1[nH]nc2c1C(c1cc(Cl)cc(C#N)c1)(C1CCC1)C(C#N)=C(N)O2 | radiometric | EC50 | NF54 | - | >2.66 µM
CN(Cc1ccc(Cl)cc1)Cc1ccc(CNc2ccnc3cc(Cl)ccc23)cc1 | - | EC50 | D10 | - | >1 µM
CCOC(=O)C1=C(C(=O)OCC)C2N(Cc3ccccc3C(F)(F)F)c3ccccc3[C@@]23C[C@@H](C(=O)OC)N(S(=O)(=O)c2ccc(C)cc2)C3=N1 | SYBR Green / fluorescence | EC50 | CP250 | - | 0.6 µM
O=C(Nc1cc(C(F)(F)F)ccc1-n1cncn1)C1(c2cccc(Cl)c2)CC1 | - | EC50 | 3D7A | - | 0.02 µM
C=CCOc1ccc(/C=C/C(=O)c2ccc(Nc3ccnc4cc(Cl)ccc34)cc2)cc1OC | SYBR Green | EC50 | 3D7 | - | 75 µM
CCOc1ccccc1C(=O)n1cc(-c2ccnc(N)n2)c2ccccc21 | LDH | EC50 | D6 | - | >14.43 µM
CN(Cc1ccccc1)Cc1ccc(CNc2ccnc3cc(Cl)ccc23)cc1 | - | EC50 | Dd2 | - | 0.026 µM
OCCN1CCN(C(c2ccccc2)c2ccccc2)CC1 | SYBR Green / fluorescence | EC50 | Dd2 | - | >2.5 µM
Cc1[nH]nc2c1C(c1cc(Cl)cc(C(F)(F)F)c1)(C(C)C)C(C#N)=C(N)O2 | radiometric | EC50 | NF54 | - | 0.49 µM
O=C(Nc1cc(C(F)(F)F)ccc1-n1cncn1)C1(c2ccccc2)CC1 | - | EC50 | FCR3 | - | 0.142 µM
Cc1ccc(N2C(=O)[C@H](NC(=O)CCNc3ccnc4cc(Cl)ccc34)[C@@H]2/C=C/c2ccccc2)cc1 | flow cytometry | EC50 | W2 | Chloroquine-resistant | 0.1125 µM
Cc1[nH]nc2c1C(c1cc(C#N)cc(-c3ccc(C(=O)N(C)C)s3)c1)(C(C)C)C(C#N)=C(N)O2 | radiometric | EC50 | NF54 | - | 0.059 µM
Cc1c(O)cc2c(c1O)C(=O)c1ccccc1C2=O | - | EC50 | 3D7 | - | >39 µM
Cc1[nH]nc2c1C(c1cc(C#N)cc(N3CCOCC3)c1)(C1CCC1)C(C#N)=C(N)O2 | radiometric | EC50 | NF54 | - | >2.4 µM
O=C(CNc1ccnc2cc(Cl)ccc12)N[C@H]1C(=O)N(c2ccc(F)cc2)[C@H]1/C=C/c1ccccc1 | flow cytometry | EC50 | W2 | Chloroquine-resistant | 0.4009 µM
C=CCOc1ccc(/C=C/C2C(=O)NC(=O)NC2=O)cc1OC | SYBR Green | EC50 | 3D7 | - | >100 µM
O=C(CCCCCNc1ccnc2cc(Cl)ccc12)N[C@H]1C(=O)N(C2CCCCC2)[C@H]1/C=C/c1ccccc1 | flow cytometry | EC50 | W2 | Chloroquine-resistant | 0.1867 µM
Cc1[nH]nc2c1C(c1cc(C#N)cc(C(F)(F)F)c1)(C(C)C)C(C#N)=C(N)O2 | radiometric | EC50 | NF54 | - | 0.31 µM
O=C1[C@@H](NCCCNc2ccnc3cc(Cl)ccc23)[C@@H](/C=C/c2ccccc2)N1c1ccc(F)cc1 | flow cytometry | EC50 | W2 | Chloroquine-resistant | 0.2042 µM
O=Cc1cc2c(cc1O)C(=O)c1ccccc1C2=O | - | EC50 | 3D7 | - | 0.63 µM
O=C1NC(c2c[nH]c3ccc(Br)cc23)Nc2ccccc21 | LDH | EC50 | W2 | - | >14.49 µM
Cc1[nH]nc2c1C(c1cc(Cl)cc(-c3cccc(C#N)c3)c1)(C1CCC1)C(C#N)=C(N)O2 | radiometric | EC50 | NF54 | - | 0.46 µM
CCOC(=O)C1=C(C(=O)OCC)C2N(Cc3ccccc3C(F)(F)F)c3ccccc3[C@@]23C[C@@H](C(=O)OC)N(S(=O)(=O)c2c(C)noc2C)C3=N1 | SYBR Green / fluorescence | EC50 | HB3 Dd2 | - | 0.6 µM
CCCCOC(=O)CC[C@H](NC(=O)c1ccc(-c2cc(C#N)cc(C3(C(C)C)C(C#N)=C(N)Oc4n[nH]c(C)c43)c2)s1)C(=O)OCCCC | radiometric | EC50 | NF54 | - | 2.08 µM
COC(=O)C1=C(C)N(Cc2ccc(C(F)(F)F)cc2)C(=NCc2cccc(C(F)(F)F)c2)NC1c1ccccc1 | SYBR Green / fluorescence | EC50 | 7G8 | - | 5.4 µM
N=C(N)c1cccc(OCCCCOc2cccc(C(=N)N)c2)c1 | hypoxanthine uptake | EC50 | D6 | - | 0.11 µM
N#CC1=C(N)Oc2[nH]ncc2C1(c1cc(Cl)cc(Cl)c1)C1CCC1 | radiometric | EC50 | NF54 | - | >2.77 µM

The first 2 rows once more:

structure,method,endpoint,strain,changes,value
COCc1c(O)cc2c(c1O)C(=O)c1ccccc1C2=O,-,EC50,3D7,-,2.1 µM
N=C(N)c1ccc(OCCCCOc2ccc(C(=N)N)cc2Cl)c(Cl)c1,hypoxanthine uptake,EC50,D6,-,0.144 µM